{"sequences": {"note": "By UniProt entry, the sequences of proteins in these tests, tags left out. Residues count along the entry.", "UniProt P0C6X1, 2966-3267 limits assumed": "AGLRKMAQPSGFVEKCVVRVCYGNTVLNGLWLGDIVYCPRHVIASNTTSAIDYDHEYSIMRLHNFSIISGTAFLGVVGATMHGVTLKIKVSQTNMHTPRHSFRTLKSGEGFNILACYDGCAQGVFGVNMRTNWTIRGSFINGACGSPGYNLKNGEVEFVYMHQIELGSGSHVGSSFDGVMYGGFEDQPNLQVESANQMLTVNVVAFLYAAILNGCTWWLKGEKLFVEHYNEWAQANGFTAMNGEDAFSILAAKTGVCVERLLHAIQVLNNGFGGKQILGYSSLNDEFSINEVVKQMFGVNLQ"}, "source": "patent US11124497B1", "key": {"229E mPRO": {"target": "229E mPRO (Human coronavirus 229E (HCoV-229E), UniProt P0C6X1)", "assay": "229E mPRO enzymatic assay", "assay_type": "biochemical, Human Coronavirus (HCov) 229E", "settings": "read-out: 229E mPRO IC50"}, "SARS-COV2 Mpro": {"target": "SARS-COV2 Mpro (Severe acute respiratory syndrome coronavirus 2 (2019-nCoV) (SARS-CoV-2), UniProt P0DTD1)", "assay": "COVID-19", "assay_type": "biochemical", "settings": "read-out: Sars CoV2 mPRO IC50; 25 nM Mpro, 25 μM substrate"}}}
{"smiles": "N#C[C@H](C[C@@H]1CCCNC1=O)NC(=O)C1CC2(CN1C(=O)c1cc3cccc(Cl)c3[nH]1)CC(F)(F)C2", "note": "(single isomer, unassigned)", "values": [{"measurement": "IC50", "setting": "229E mPRO", "result": "< 22", "unit": "µM"}, {"measurement": "IC50", "setting": "SARS-COV2 Mpro", "result": "< 22", "unit": "µM"}]}
{"smiles": "N#CC(CC1CCCNC1=O)NC(=O)C1CC2(CCCCC2)CN1C(=O)c1cc2ccc(Cl)cc2[nH]1", "note": "(single isomer, unassigned)", "values": [{"measurement": "IC50", "setting": "SARS-COV2 Mpro", "result": "< 22", "unit": "µM"}]}
